Pooled drug test results. Numbers come from NIAID ChemDB, via PubChem.

All rows: tests in culture; organism: HIV-1; read-out: fold resistance

Fold resistance: result on the changed form divided by that on wild type. Neighbouring rows are from separate reports. Blank or dashed fields: not listed here.

compound,method,mutations,strain,cells,result
C/C=C/CSc1cc(NC(=S)c2ccsc2C)ccc1Cl,p24,RT-L74V,NL4-3,CEM + CEM-SS,0.875
CC(C)c1c(Sc2ccccc2)n(COCCO)c(=S)[nH]c1=O,syncytia,RT-Y188H,IIIB,CEM,>50
Cc1cc(OCCCS(N)(=O)=O)ccc1NC(=O)COc1ccc(Cl)cc1C(=O)c1cc(F)cc(C(F)(F)F)c1,β-galactosidase,RT-Y181C,HXB2,HeLa + HELA CD4+,~1
CC(C)OC(=O)c1cc(NC(=O)OCC2CC2)ccc1Cl,syncytia,RT-L100I,-,CEM,8.89
Cc1cc2[nH]cnc2cc1NC(=O)COc1ccc(Cl)cc1C(=O)c1cc(F)cc(C(F)(F)F)c1,cytopathic effect / propidium iodide,RT-Y181C,Nevirapine-resistant (RT Y181C),MT-4,~1
CC(C)OC(=S)Nc1ccc(Cl)c(C(=O)OC(C)(C)C)c1,syncytia,RT-L100I,-,CEM,125
O=C1Nc2ccc(Cl)cc2[C@@](/C=C/C2CC2)(C(F)(F)F)N1,-,RT-L100I,-,-,10
CCOCn1c(Sc2ccccc2)c(CC)c(=O)[nH]c1=O,syncytia,RT-Y181I,IIIB,CEM,183
CCC(=O)c1ccc(F)c([C@@H]2C[C@@H]2NC(=O)Nc2ccc(C#N)cn2)c1O,β-galactosidase / luminescence,NNRTI-resistant (RT E138K),LAI,TZM-bl,2.8
CC(C)=CCOc1cc(NC(=S)c2ccsc2C)ccc1Cl,cytopathic effect / XTT,RT-K101E,NL4-3 (RT K101E),CEM + CEM-SS,1
Cc1cc(C)cc(C(=O)c2cc(Cl)ccc2OCC(=O)Nc2ccc(S(N)(=O)=O)cc2C)c1,β-galactosidase,RT-K103N P225H,HXB2,HeLa + HELA CD4+,~1
Cc1ccc(C2CC2)c(-c2ccc3c(c2C)CCCO3)c1[C@H](OC(C)(C)C)C(=O)O,luminescence,PI-resistant ARP-4595 (M46I/L63P/V82T/I84V),NL4-3,MT-4,1
CCOCn1c(Sc2ccccc2)c(C(C)C)c(=O)[nH]c1=S,syncytia,RT-Y181I,IIIB,CEM,>3330
CC(C)=CCOc1cc(NC(=S)c2ccoc2C)ccc1Cl,cytopathic effect / XTT,RT-V106I,NL4-3 (RT V106I),CEM + CEM-SS,16.7
O=C1Nc2ccc(F)c(F)c2[C@@](/C=C/C2CC2)(C(F)(F)F)N1,-,RT-K103N,-,-,11.1
CCc1c(Cc2cc(C)cc(C)c2)n(COCCO)c(=O)[nH]c1=O,syncytia,RT-Y188H,IIIB,CEM,>357
CC(C)[C@H](NC(=O)OCc1ccccn1)C(=O)N[C@@H](Cc1ccccc1)[C@@H](O)C[C@H](Cc1ccccc1)NC(=O)OCc1cccnc1,p24,PR-M46I V82T,NL4-3,MT-4,1.875
Cc1cc(C#N)cc(C(=O)c2cc(Cl)ccc2OCC(=O)Nc2ccc(OCCCN3CC=CC3)cc2C)c1,β-galactosidase,RT-K103N G190A,HXB2 (RT-K103N G190A) Recombinant,HeLa + HELA CD4+,~1
Cc1ccc(C2CC2)c(-c2ccc3c(c2)CCCO3)c1[C@H](OC(C)(C)C)C(=O)O,luminescence,INSTI-resistant (IN-G140S Q148H),NL4-3,MT-4,1
O=C1Nc2ccc(Cl)cc2[C@@](C#CC2CC2)(C(F)(F)F)O1,-,V106A/F227C,-,MT-4,33

The last 2 rows once more:

{"compound": "Cc1ccc(C2CC2)c(-c2ccc3c(c2)CCCO3)c1[C@H](OC(C)(C)C)C(=O)O", "method": "luminescence", "mutations": "INSTI-resistant (IN-G140S Q148H)", "strain": "NL4-3", "cells": "MT-4", "result": "1"}
{"compound": "O=C1Nc2ccc(Cl)cc2[C@@](C#CC2CC2)(C(F)(F)F)O1", "mutations": "V106A/F227C", "cells": "MT-4", "result": "33"}